The source of these data is publication PMC3873415, “A Non-Biological Method for Screening Active Components against Influenza Virus from Traditional Chinese Medicine by Coupling a LC Column with Oseltamivir Molecularly Imprinted Polymers” (PLoS ONE, 2013).

The test system of this data set is MDCK cells. The conditions noted are these: dog.

Turning to phillyrin, the “TCD0 (maximum non-toxic concentration)” value worked out at 1 mg/mL.
